A value given as a limit tells only on which side of the number the result lay.

For one series, the system named is HIV-1 replication in H9 lymphocyte cells. To be noted: Fujioka et al. 1994; cited from earlier work.
Consider `C=C(C)[C@@H]1CC[C@]2(C(=O)O)CC[C@]3(C)[C@H](CC[C@@H]4[C@@]5(C)CC[C@H](O)C(C)(C)[C@@H]5CC[C@]43C)[C@@H]12` [Betulinic acid, betulinic acid], for which the T.I. value is 9.3.
As for `CC(C)[C@@H]1CC[C@]2(C(=O)O)CC[C@]3(C)C(CCC4[C@@]5(C)CC[C@H](O)C(C)(C)C5CC[C@]43C)C12` (some centres unmarked) [dihydrobetulinic acid], the T.I. value is 14.
As to `CC(=O)[C@@H]1CC[C@]2(C(=O)O)CC[C@]3(C)[C@H](CC[C@@H]4[C@@]5(C)CC[C@H](O)C(C)(C)[C@@H]5CC[C@]43C)[C@@H]12` [platanic acid], the T.I. value was 14.

The next series relates to HIV-1 (IIIB isolate). Type of series: cell-based. As to conditions: ratio of cytotoxicity IC50 to anti-HIV EC50. As to the method:
The biological evaluation of HIV-1 inhibition was carried out as follows according to established protocols (Montefiori et al., Clin Microbiol. 26:231-235 (1988)). The human T-cell line, MT-2, was maintained in continuous culture with complete medium (RPMI 1640 with 10% fetal calf serum supplemented with L-glutamine at 5% CO2 and 37° C.). Test samples were first dissolved in dimethyl sulfoxide at a concentration of 10 mg/ml to generate master stocks with dilutions made into tissue culture media to generate working stocks. The following drug concentrations were routinely used for screening: 100, 20, 4 and 0.8 μg/ml. For agents found to be active, additional dilutions were prepared for subsequent testing so that an accurate EC50 value (defined below) could be determined. Test samples were prepared and to each sample well was added 90 μl of media containing MT-2 cells at 3×10^5 cells/ml and 45 μl of virus inoculum (HIV-1 IIIIB isolate) at a concentration necessary to result in 80% killing of the cell targets at 5 days post-infection (PI). Control wells containing virus and cells only (no drug) and cells only (no virus or drug) were also prepared. A second set of samples were prepared identical to the first and were added to cells under identical conditions without virus (mock infection) for toxicity determinations (IC50 defined below). In addition, AZT was also assayed during each experiment as a positive drug control. On day 5 PI, virus-induced cell killing was determined by measuring cell viability using the XTT method. Compound toxicity was determined by XTT using the mock-infected samples. If a test sample had suppressive capability and was not toxic, its effects were reported in the following terms: IC50, the concentration of test sample which was toxic to 50% of the mock-infected MT-2 cells; EC50, the concentration of the test sample that was able to suppress HIV replication by 50%; and the Therapeutic index (TI) the ratio of the IC50 to EC50.
Compounds of the present invention were assayed for anti-HIV activity according to the following assay procedures. The T cell line, H9, and the promonocytic cell line, U937, were maintained separately in continuous culture with complete medium (RPMI 1640 with 10% fetal calf serum) at 5% CO2 and 37° C. The cell lines were used in experiments only when in the logarithmic phase of growth, whereas uninfected peripheral blood mononuclear cells (PBMCs) were first stimulated with PHA (1 μg/mL) for three days. All cell targets were incubated with HIV-1 (IIIB isolate, 1×10^6 TCID50/mL) for one hour at 37° C. and 5% CO2. The cell lines and PBMCs were washed thoroughly to remove unadsorbed virions and resuspended at 4×10^5 cells/mL in complete medium or complete medium with 10% v/v interleukin 2 (IL-2), respectively. 100 μL aliquots were placed into wells of 96-well tissue culture plates containing an equal volume of test compounds (diluted in the appropriate culture medium). The toxicity of each compound was assessed by determining the number of compound-exposed uninfected cells that remained after five days at 37° C. and 5% CO2. A p24 antigen ELISA assay was used to determine the level of virus released in the medium of the HIV-infected cultures. […] The cutoff for the p24 ELISA assay was 12.5 pg/mL. p24 in the culture medium was quantitated against a standard curve containing known amounts of p24. The effective (EC50) and inhibitory (IC50) concentrations for anti-HIV activity and cytotoxicity, respectively, were determined.
On to `C=C(C)[C@@H]1CC[C@]2(CO)CC[C@]3(C)[C@H](CC[C@@H]4[C@@]5(C)CC[C@H](OC(=O)CCCC(=O)OCC)C(C)(C)[C@@H]5CC[C@]43C)[C@@H]12` [Compound 18, 3-O-glutaryl betulin ethyl ester], for which the “Therapeutic Index (=IC50/EC50)” value came out at 55340.
On the same count and under the same terms, with `C=C(C)[C@@H]1CC[C@]2(CO)CC[C@]3(C)[C@H](CC[C@@H]4[C@@]5(C)CC[C@H](OC(=O)CC(C)(C)C(=O)O)C(C)(C)[C@@H]5CC[C@]43C)[C@@H]12` [Compound 6] the figure was 5975; with `C=C(C)[C@@H]1CC[C@]2(CO)CC[C@]3(C)[C@H](CC[C@@H]4[C@@]5(C)CC[C@H](OC(=O)CC(C)(C)CC(=O)O)C(C)(C)[C@@H]5CC[C@]43C)[C@@H]12` [Compound 8], 6568; with `C=C(C)[C@@H]1CC[C@]2(CO)CC[C@]3(C)[C@H](CC[C@@H]4[C@@]5(C)CC[C@H](OC(=O)CCCC(=O)O)C(C)(C)[C@@H]5CC[C@]43C)[C@@H]12` [Compound 10, 3-O-glutaryl betulin], 670.
Still for that read-out and setting: with `C=C(C)[C@@H]1CC[C@]2(CO)CC[C@]3(C)[C@H](CC[C@@H]4[C@@]5(C)CC[C@H](OC(=O)COCC(=O)O)C(C)(C)[C@@H]5CC[C@]43C)[C@@H]12` [Compound 12] the figure was >1819.
